Test results taken from paper PMC6268061, “Investigation of the Biological Properties of (Hetero)Aromatic Thiosemicarbazones” (Molecules, 2012).

Assay: Isosbestic point determination, UV-VIS spectra with Fe3+ (iron chelation)
Type: physicochemical
Details: compound in DMSO with FeCl3

SMILES | Interaction with Fe3+ (isosbestic points observable) | Isosbestic point of complexes with iron
NC(=S)N/N=C/c1cccc(Cl)c1Cl [Compound 3a, (E)-2-(2,3-Dichlorobenzylidene)hydrazinecarbothioamide] | inactive | 
CN(C)C(=S)N/N=C/c1ccc(Br)cc1 [Compound 3m, (E)-2-(4-bromobenzylidene)-N,N-dimethylhydrazinecarbothioamide] | inactive | 
CN(C)C(=S)NN/C=C/c1ccc2ccccc2n1 [Compound 4b, (E)-2-(Quinolin-2-ylvinyl)-N,N-dimethylhydrazinecarbothioamide] |  | 375 nm
CNC(=S)NN=Cc1c(O)ccc2cccnc12 [Compound 4i] | less visible points | 
CN(C)C(=S)NN=Cc1c(O)ccc2cccnc12 [Compound 4j] |  | 330 nm and 385 nm

Several values for one entry are separate records, joined by “and”; a condition that tells them apart may be missing. Unless stated, no cut-off for active and inactive is given here. Equal values may be shown once.
